“And” between values parts separate entries of the source, which are not always exact repeats. Equal values may be shown once.

This is an account of results in patent WO2001000678A1.

The target in assay [1] is recombinant HIV-1 envelope glycoprotein gp120 (HIV-1 (clone derived from HIV-1 IIIb)). The assay is described as follows: competition ELISA on gp120, soluble CD4 against biotinylated Fab 2. Background: ELISA stands for enzyme-linked immunosorbent assay.
Assay [2] has the same target. The assay is described as follows: competition ELISA on gp120, soluble CD4 against biotinylated Fab 5.
The target is the same in assay [3]. The assay is described as follows: competition ELISA on gp120, soluble CD4 against biotinylated Fab 6.
Assay [4] shares this target. The assay is described as follows: competition ELISA on gp120, soluble CD4 against biotinylated Fab 1.
For assay [5] the target is unchanged. In words: competition ELISA on gp120, soluble CD4 against biotinylated Fab 3.
Assay [6] shares this target. In words: competition ELISA on gp120, soluble CD4 against biotinylated F105 Fab.
The target is the same in assay [7]. The assay is described as follows: competition ELISA on gp120, soluble CD4 against biotinylated Fabs 4 and 7 (group; member at this end not told).

Take “recombinant CD4 (from UniProt P01730 26-394) (receptor)”: the IC50 in assay [1] was 0.5 µg/mL; in assay [2], 0.5 µg/mL; in assay [3] it was 0.2 µg/mL; in assay [4], 0.3 µg/mL; in assay [5] it was 0.3 µg/mL; in assay [6], 0.6 µg/mL. Further, the IC50 in assay [7] is 0.7 µg/mL and 0.8 µg/mL.

In general, IC50 refers to the concentration needed to halve the response being measured.
